We go through seven compounds from patent US20100048696A1, “AGRICULTURAL DISEASE CONTROL AGENT” (Idemitsu Kosan Co., Ltd., priority 2007, published 2010).

The experiment relates to Clavibacter michiganense subsp. Nebraskense (ATCC27822). In words: Basic test: cutting knife disinfection, ring rot pathogens. It counts as cell-based. The note with it: cutting knife immersed 5 seconds.

For the compound `CC(=O)O` [Acetic acid, reference compound], the “Logarithm (number of ring rot pathogens)” value (10 times solution) was found to be 3.5 cfu and the “Logarithm (number of ring rot pathogens)” value (50 times solution) is 7.0 cfu. `O=C(O)CC(O)C(=O)O` (stereo not drawn) [Malic acid, reference compound]: under “10 times solution”, the “Logarithm (number of ring rot pathogens)” value worked out at 9.3 cfu. Take `O=C1O[C@H]([C@@H](O)CO)C(O)=C1O` [Ascorbic acid, reference compound]: where the note is “10 times solution”, the “Logarithm (number of ring rot pathogens)” value stood at 9.3 cfu.

Turning to `O=C(O)CC(O)(CC(=O)O)C(=O)O` [Citric acid, reference compound], the “Logarithm (number of ring rot pathogens)” value (10 times solution) is reported as 9.3 cfu. For `O=C(O)CCC(=O)O` [Succinic acid, reference compound], the “Logarithm (number of ring rot pathogens)” value is, setting by setting: (10 times solution) 9.3 cfu; (50 times solution) 9.3 cfu. Take `O=C(O)/C=C\C(=O)O` [Maleic acid]: the “Logarithm (number of ring rot pathogens)” value (10 times solution) was 0.0 cfu. Consider `O=C1C=CC(=O)O1` [Maleic anhydride], for which the “Logarithm (number of ring rot pathogens)” value (10 times solution) turned out to be 0.0 cfu.
